Values of other authors in publication PMC3904841, “Crystal Structures of HIV-1 gp120 Envelope Glycoprotein in Complex with NBD Analogues That Target the CD4-Binding Site” (PLoS ONE, 2014).

What was measured:
HIV-1 YU2 virus = details: Cf2Th-CD4/CCR5 cells infected with HIV-1 YU2 virus; ref [24,27]; cited from earlier work
gp120 = details: binding affinity for gp120; ref [24,27]; cited from earlier work

## O=C(NCC1CCN(C2CC2)C1)C(=O)Nc1ccc(Cl)c(F)c1 (centres unmarked) [MAE-II-188]
HIV-1 YU2 virus
  IC50: 33.5 µM
gp120
  Kd: 1.7 µM
